# Experimental data as given in PMC10041525, “New Dual Inhibitors of Bacterial Topoisomerases with Broad-Spectrum Antibacterial Activity and In Vivo Efficacy against Vancomycin-Intermediate Staphylococcus aureus” (Journal of Medicinal Chemistry, 2023).
# Type: physicochemical
# Settings: solubility assay
# Experimental: For the PBS, 2.38 g of disodium hydrogen phosphate dodecahydrate, 0.19 g of potassium dihydrogen phosphate, and 8.0 g of sodium chloride were added to distilled water (900 mL), and the solution was mixed overnight. […] Samples were prepared by weighing the exact mass of solid compounds (about 1 mg), and then, the appropriate volume of PBS was added to reach the final concentration of ∼1 mg/mL. […] The supernatant was diluted 3× with a 1:1 mixture of 0.1% TFA in water and acetonitrile and analyzed by HPLC. For the 7-point calibration curves, concentrated stock solutions of the compounds were prepared at concentrations of 10 and 0.5 mM in DMSO, which were diluted with a 1:1 mixture of 0.1% TFA in water and acetonitrile to the desired final concentrations and analyzed by HPLC. Results are given in μM as an average value of two independent experiments. For details on calibration curves, concentrations, analytical method, and HPLC method, see the Supporting Information.
# Thermodynamic solubility assay
# To determine thermodynamic solubility of compounds in PBS, calibration curves for the assayed compounds were prepared using seven concentrations. First, DMSO stock solutions of compounds at 10 mM and 0.5 mM concentration were prepared and then diluted (0.1% TFA in […]
# Quality control (QC) samples were diluted from stock solutions with a 1:1 mixture of 0.1% TFA in water and acetonitrile to final concentrations of 60 µM, 20 µM, and 2 µM (6 µM, 2 µM, and 0.2 µM for 7f or 0.6 µM, 0.2 µM, and 0.02 µM for 7g).
# Analytical reversed-phase UHPLC analyses were performed on Thermo Scientific Dionex UltiMate 3000 modular system (Thermo Fisher Scientific Inc., MA, USA). Waters Acquity UPLC® HSS C18 SB column (2.1 × 50 mm, 1.8 μm; Waters, Milford, MA, USA) was used at T […]
# Mobile phase consisted of 0.1% trifluoroacetic acid in ultrapure water (solvent A) and acetonitrile […]
# The obtained data was processed in Chromeleon CDS software (Thermo Fisher Scientific Inc., […]
# Analytical method was tested for accuracy, precision and linear rang. Accuracy was […]
# (or 2 or 0.2) µM and 60 (or 6 or 0.6) µM) to their true values and expressed in (%). Values were […]
# Method repeatability was determined by calculating the RSD from the separately prepared and analysed quality control samples (n = 3). […] Linearity of the […]
# method (1 (or 0.1 or 0.01) µM to 100 (or 10 or 1) µM) was evaluated from the 7-point calibration […]
# Solubility was determined in two independent experiments and results were calculated in […]
row,Structure (SMILES),Recovery [%]
1,"Cc1[nH]c(C(=O)Nc2nc3c(N4CCOCC4C)cc(C(=O)O)cc3s2)c(Cl)c1Cl (stereo not drawn) [7b, 2-(3,4-Dichloro-5-methyl-1H-pyrrole-2-carboxamido)-4-(3-methylmorpholino)benzo[d]thiazole-6-carboxylic Acid]",100.1
2,"Cc1[nH]c(C(=O)Nc2nc3c(N4CCOC[C@H]4C)cc(C(=O)O)cc3s2)c(Cl)c1Cl [7c, (R)-2-(3,4-Dichloro-5-methyl-1H-pyrrole-2-carboxamido)-4-(3-methylmorpholino)benzo[d]thiazole-6-carboxylic Acid]",99.6
3,"Cc1[nH]c(C(=O)Nc2nc3c(N4CCOC[C@@H]4C)cc(C(=O)O)cc3s2)c(Cl)c1Cl [7d, (S)-2-(3,4-Dichloro-5-methyl-1H-pyrrole-2-carboxamido)-4-(3-methylmorpholino)benzo[d]thiazole-6-carboxylic Acid]",110.7
4,"Cc1[nH]c(C(=O)Nc2nc3c(N4CCOC(C)C4)cc(C(=O)O)cc3s2)c(Cl)c1Cl (stereo not drawn) [7e, 2-(3,4-Dichloro-5-methyl-1H-pyrrole-2-carboxamido)-4-(2-methylmorpholino)benzo[d]thiazole-6-carboxylic Acid]",114.5
5,"Cc1[nH]c(C(=O)Nc2nc3c(N4CC(C)OC(C)C4)cc(C(=O)O)cc3s2)c(Cl)c1Cl (stereo not drawn) [7f, 2-(3,4-Dichloro-5-methyl-1H-pyrrole-2-carboxamido)-4-(2,6-dimethylmorpholino)benzo[d]thiazole-6-carboxylic Acid]",97.4
6,"Cc1[nH]c(C(=O)Nc2nc3c(N4C[C@H]5CC[C@@H](C4)O5)cc(C(=O)O)cc3s2)c(Cl)c1Cl [7g, 4-((1R,5S)-8-Oxa-3-azabicyclo[3.2.1]octan-3-yl)-2-(3,4-dichloro-5-methyl-1H-pyrrole-2-carboxamido)benzo[d]thiazole-6-carboxylic Acid]",90.0
7,"COCC1CCCN1c1cc(C(=O)O)cc2sc(NC(=O)c3[nH]c(C)c(Cl)c3Cl)nc12 (stereo not drawn) [7n, 2-(3,4-Dichloro-5-methyl-1H-pyrrole-2-carboxamido)-4-(2-(methoxymethyl)pyrrolidin-1-yl)benzo[d]thiazole-6-carboxylic Acid]",104.4
8,"COC[C@@H]1CCCN1c1cc(C(=O)O)cc2sc(NC(=O)c3[nH]c(C)c(Cl)c3Cl)nc12 [7o, (S)-2-(3,4-Dichloro-5-methyl-1H-pyrrole-2-carboxamido)-4-(2-(methoxymethyl)pyrrolidin-1-yl)benzo[d]thiazole-6-carboxylic Acid]",90.5
9,"Cc1[nH]c(C(=O)Nc2nc3c(N4CCC(O)CC4)cc(C(=O)O)cc3s2)c(Cl)c1Cl [7p, 2-(3,4-Dichloro-5-methyl-1H-pyrrole-2-carboxamido)-4-(4-hydroxypiperidin-1-yl)benzo[d]thiazole-6-carboxylic Acid]",103.8
10,"Cc1[nH]c(C(=O)Nc2nc3c(N4CCC5(CC4)OCCO5)cc(C(=O)O)cc3s2)c(Cl)c1Cl [7r, 2-(3,4-Dichloro-5-methyl-1H-pyrrole-2-carboxamido)-4-(1,4-dioxa-8-azaspiro[4.5]decan-8-yl)benzo[d]thiazole-6-carboxylic Acid]",87.7
11,"Cc1[nH]c(C(=O)Nc2nc3c(N4CCOCC4)cc(C(=O)O)cc3s2)cc1Cl [16a, 2-(4-Chloro-5-methyl-1H-pyrrole-2-carboxamido)-4-morpholinobenzo[d]thiazole-6-carboxylic Acid]",105.1
12,"Cc1[nH]c(C(=O)Nc2nc3c(N4CCOCC4)cc(C(=O)O)cc3s2)cc1F [16b, 2-(4-Fluoro-5-methyl-1H-pyrrole-2-carboxamido)-4-morpholinobenzo[d]thiazole-6-carboxylic Acid]",101.6
